The record followed here is US20080274976A1, “USES OF NOVEL POTASSIUM CHANNEL BLOCKERS” (priority 2002, published 2008).

This series can be described thus: Injection of the peptide into mice (i.c.v., i.t., i.p.).

As to `CC(C)C[C@@H]1NC(=O)[C@H](CO)NC(=O)[C@@H]2CSSC[C@@H]3NC(=O)[C@@H]4C[C@@H](O)CN4C(=O)[C@H](CC(N)=O)NC(=O)[C@H](CCCNC(=N)N)NC(=O)[C@H](CCCCN)NC(=O)[C@H](CSSC[C@H](NC(=O)[C@H](CO)NC(=O)[C@@H]4C[C@@H](O)CN4C(=O)[C@@H](N)CC(C)C)C(=O)N2)NC(=O)[C@H](C)NC(=O)[C@@H]2C[C@@H](O)CN2C(=O)[C@H](C(C)C)NC(=O)[C@@H]2C[C@@H](O)CN2C(=O)[C@H](CSSC[C@@H](C(=O)N[C@H](C(N)=O)[C@@H](C)O)NC3=O)NC(=O)[C@H](CC(C)C)NC(=O)[C@H](CCCNC(=N)N)NC(=O)[C@H](CC(C)C)NC(=O)[C@H](CC(N)=O)NC1=O`, the “observed effect after i.c.v. injection” value (4 nmoles, i.c.v.) is on record as “seizures were observed”. The “symptomatology upon injection i.c.v.” value (i.c.v.) is given as “obvious symptomatology”. The “effects after i.p. injection” value (i.p.) is reported as “no visible effects”. For the same compound, under “i.t.”, the “symptomatology upon injection i.t.” value is reported as “obvious symptomatology”.
